Patent US20230257726A1

Biological target: SARS-CoV-2 spike protein on spike pseudotyped lentivirus particles or authentic SARS-CoV-2 (SARS-CoV-2) (UniProt P0DTC2)
Experiment: cell-based or functional assay

## Wild-type ACE2(740)-Fc (Fc fusion)
  IC50 (µg/ml), pseudovirus: 0.71 µg/mL
